Measured values from several laboratories, pooled; numbers as filed in NIAID ChemDB.

All rows: growth or infection tests; agent: HIV-1

ECn: concentration that inhibits the pathogen or its effect by n%. Fold resistance: result on the changed form divided by that on wild type. Inhibition is in % at the dose shown (toxicity tests: loss of growth or viability). Conditions beyond the fields shown may differ between rows.

{"compound": "Cc1cn([C@H]2C[C@H](N=[N+]=[N-])[C@@H](COP(=O)(O)OC[C@H]3OC(O)[C@@H](O)[C@@H](O)[C@@H]3O)O2)c(=O)[nH]c1=O", "strain or isolate": "LAV-Bru", "cells": "CEM", "read by": "RT activity", "setting": "26 d", "read-out": "inhibition", "tested at": "5 µM", "value": "0%"}
{"compound": "CC(C)=CCN1c2cc(Cl)cc3[nH]c(=S)n(c23)C[C@@H]1C", "mutations": "RT-K70R", "cells": "MT-4", "read-out": "EC95", "value": "0.1 µM"}
{"compound": "CC(C)c1nc(CN(C)C(=O)N[C@H](C(=O)N[C@@H](Cc2ccccc2)C[C@H](O)[C@H](Cc2ccccc2)NC(=O)OCc2cncs2)C(C)C)cs1", "strain or isolate": "NL4-3", "cells": "MT-4", "read by": "p24", "read-out": "EC90", "value": "0.05 µM"}
{"compound": "Nc1ncnc2c1ncn2CCOCP(=O)(O)O", "mutations": "RT-L74V", "read-out": "fold resistance", "value": "1"}
{"compound": "Cc1ccnc2c1NC(=O)c1cccnc1N2C1CC1", "strain or isolate": "HXB2", "mutations": "RT-L74V Y181C", "cells": "HT4 + HT4 LacZ-1", "read by": "plaque count", "read-out": "fold resistance", "value": "66.7"}
{"compound": "O=C1Nc2ccc(Cl)cc2[C@@](C#CC2CC2)(C(F)(F)F)O1", "mutations": "L74V", "cells": "Primary T lymphocytes", "read by": "p24 / ELISA", "read-out": "EC90", "value": "0.2 µM"}
{"compound": "CCn1nc(Cc2ccc(OC(F)F)cc2)cc1C1CCN(C[C@H]2CN([C@@H](C(=O)O)C(C)C)C[C@@H]2c2cccc(F)c2)CC1", "strain or isolate": "BaL", "cells": "HeLa", "read by": "β-galactosidase", "read-out": "EC90", "value": "<0.00014 µM"}
{"compound": "N#Cc1cc2[nH]c3ccccc3c2n(-c2ccc([N+](=O)[O-])cc2)c1=O", "strain or isolate": "NNRTI-resistant", "mutations": "RT-Y181C", "cells": "HeLa", "read by": "luciferase", "read-out": "fold resistance", "value": "2.9"}
{"compound": "C#C[C@]1(CO)O[C@@H](n2cnc3c(N)nc(F)nc32)C[C@@H]1O", "strain or isolate": "Clinical isolate", "mutations": "A158T", "cells": "MT4-GFP", "read by": "fluorescence", "read-out": "EC50", "value": "0.00097 µM"}
{"compound": "Cc1cn([C@H]2C=C[C@@H](CO)O2)c(=O)[nH]c1=O", "mutations": "4xAZT", "cells": "Primary T lymphocytes", "read by": "p24 / ELISA", "read-out": "EC90", "value": "53.2 µM"}
{"compound": "Cc1cn([C@H]2C[C@H](N=[N+]=[N-])[C@@H](CO)O2)c(=O)[nH]c1=O", "strain or isolate": "LAV-Bru", "cells": "CEM", "read by": "RT activity", "setting": "26 d", "read-out": "inhibition", "tested at": "25 µM", "value": "94%"}
{"compound": "CCn1nc(Cc2ccc(C(C)C)cc2)cc1C1CCN(C[C@H]2CN([C@@H](C(=O)O)C(C)(C)C)C[C@@H]2c2cccc(F)c2)CC1", "strain or isolate": "BaL", "cells": "HeLa", "read by": "β-galactosidase", "read-out": "EC90", "value": "0.0004 µM"}
{"compound": "Nc1nc(=O)n([C@@H]2CS[C@H](CO)O2)cc1F", "strain or isolate": "HXB2", "mutations": "RT-Y181C", "cells": "HT4 + HT4 LacZ-1", "read by": "plaque count", "read-out": "EC50", "value": "0.02 µM"}
{"compound": "Cc1cc(S(N)(=O)=O)ccc1NC(=O)COc1ccc(Cl)cc1C(=O)c1cc(Cl)cc(C#N)c1", "strain or isolate": "NNRTI-resistant (RT P225H)", "mutations": "RT-P225H", "cells": "MAGI", "read by": "β-galactosidase", "read-out": "EC50", "value": "0.0003 µM"}
{"compound": "O=c1[nH]cnc2c1ncn2[C@H]1CC[C@@H](CO)O1", "strain or isolate": "RT-41L 69[SS] 215Y", "mutations": "RT M41L T69SS insertion T215Y", "read-out": "fold resistance", "value": "3"}
{"compound": "CC(C)(c1ncc(-c2ccc(F)cc2)o1)N1CCN(C[C@@H](O)C[C@@H](Cc2nnc(-c3ccccc3)o2)C(=O)N[C@H]2c3ccccc3OC[C@H]2O)[C@H](C(=O)NCC(F)(F)F)C1", "strain or isolate": "K-60 Clinical isolate", "mutations": "PR-L10I M46I I54V Q58E L63P I64V V77I V82F I84V L90M I93L", "cells": "MT-4", "read by": "p24", "read-out": "EC95", "value": "≤0.008 µM"}
{"compound": "C/C(=C(/CCO)SS/C(CCO)=C(\\C)N(C=O)Cc1cnc(C)nc1N)N(C=O)Cc1cnc(C)nc1N", "strain or isolate": "LAV-1", "cells": "CEM/HIV-1(LAV-1) + CEM", "read by": "p24", "read-out": "inhibition", "tested at": "500 µM", "value": "90%"}
{"compound": "Cc1cn([C@H]2C[C@H](N=[N+]=[N-])[C@@H](CO)O2)c(=O)[nH]c1=O", "strain or isolate": "NRTI resistant", "mutations": "RT-D67N T69N M184V T215F K219Q", "cells": "HeLa", "read by": "luciferase", "read-out": "fold resistance", "value": "4.8"}
{"compound": "Cc1cn([C@H]2C[C@H](N=[N+]=[N-])[C@@H](COP(=O)(O)OC[C@H]3OC(O)[C@H](O)[C@@H](O)[C@@H]3O)O2)c(=O)[nH]c1=O", "strain or isolate": "LAV-Bru", "cells": "CEM", "read by": "RT activity", "setting": "22 d", "read-out": "inhibition", "tested at": "0.2 µM", "value": "56%"}
{"compound": "Nc1ncnc2c1ncn2CCOCP(=O)(O)O", "cells": "MM + M/M", "read-out": "EC99", "value": "0.5 µM"}
{"compound": "O=S(=O)(O)c1cc(N=C=S)ccc1/C=C/c1ccc(N=C=S)cc1S(=O)(=O)O", "strain or isolate": "RF", "cells": "C8166", "read by": "p24", "read-out": "inhibition", "tested at": "100 µg/mL", "value": "95.2%"}
{"compound": "CCn1nc(Cc2cccc(F)c2)cc1C1CCN(C[C@H]2CN([C@@H](C(=O)O)C3CCCCC3)C[C@@H]2c2cccc(F)c2)CC1", "strain or isolate": "BaL", "cells": "HeLa", "read by": "β-galactosidase", "read-out": "EC90", "value": "<0.00014 µM"}
{"compound": "Cc1ccc(S(=O)(=O)N(CC(C)C)C[C@@H](O)[C@H](Cc2ccccc2)NC(=O)O[C@H]2CO[C@H]3OCC[C@H]32)cc1", "strain or isolate": "IIIB", "mutations": "ATV-P36 darunavir-resistant mutant", "cells": "MT-2", "read by": "ATP", "read-out": "fold resistance", "value": "0.5"}
{"compound": "CC[C@@H](C)[C@H](C(=O)O)N1C[C@H](CN2CCC(c3cc(Cc4cc(C(F)(F)F)cc(C(F)(F)F)c4)nn3CC)CC2)[C@@H](c2cccc(F)c2)C1", "strain or isolate": "BaL", "cells": "HeLa", "read by": "β-galactosidase", "read-out": "EC90", "value": "0.033 µM"}
{"compound": "S=C(NCCc1cccs1)Nc1ccc(Br)cn1", "strain or isolate": "G691-2 Clinical isolate NRTI-resistant", "mutations": "RT-D67N K70R T215F K219Q", "cells": "HT4 + HeLa", "read by": "plaque count", "read-out": "EC50", "value": "0.005 µM"}
{"compound": "CC[C@H](C)[C@H](C(=O)O)N1C[C@H](CN2CCC(c3cc(Cc4cccc(OC)c4)nn3CC)CC2)[C@@H](c2cccc(F)c2)C1", "strain or isolate": "BaL", "cells": "HeLa", "read by": "β-galactosidase", "read-out": "EC90", "value": "<0.00014 µM"}
{"compound": "Nc1nc(=O)n([C@H]2CS[C@@H](CO)O2)cc1F", "strain or isolate": "HXB2", "cells": "HT4 + HT4 LacZ-1", "read by": "plaque count", "read-out": "EC50", "value": "19 µM"}
{"compound": "CCCOc1ccc(Cc2cc(C3CCN(C[C@H]4CN([C@@H](C(=O)O)[C@@H](C)CC)C[C@@H]4c4cccc(F)c4)CC3)n(CC)n2)cc1", "strain or isolate": "BaL", "cells": "HeLa", "read by": "β-galactosidase", "read-out": "EC90", "value": "<0.00014 µM"}
{"compound": "O=C1N(Cc2ccc(CO)cc2)[C@H](Cc2ccccc2)[C@H](O)[C@@H](O)[C@@H](Cc2ccccc2)N1Cc1ccc(CO)cc1", "strain or isolate": "Clinical isolate E", "cells": "PBMC", "read by": "p24", "read-out": "inhibition", "tested at": "0.05 µM", "value": "90%"}
{"compound": "CCCN(C)C(=O)Oc1nsnc1-c1c(Cl)ccc(N)c1Cl", "strain or isolate": "IIIB", "mutations": "RT-V108I", "cells": "MAGI", "read by": "MTT", "read-out": "fold resistance", "value": "2.37"}
{"compound": "c1cc(CN2CCCNCCNCCCNCC2)ccc1CN1CCCNCCNCCCNCC1", "strain or isolate": "DJ258 CLADE A R5", "cells": "PBMC", "read by": "p24", "read-out": "inhibition", "tested at": "0.1 µM", "value": "0%"}
{"compound": "O=c1[nH]cnc2c1ncn2C1CC[C@@H](CO)O1", "mutations": "4xAZT", "cells": "Primary T lymphocytes", "read by": "p24 / ELISA", "read-out": "EC90", "value": "77.1 µM"}
{"compound": "CC(=O)N1CCC(C(=O)N(CCCN2CCC(Cc3ccc(C(N)=O)cc3)CC2)c2ccc(C)c(Cl)c2)CC1", "strain or isolate": "R5X4 subtype B_3 recombinant", "cells": "U87 (CD4+ CXCR4+) + U87", "read by": "luciferase", "read-out": "EC50", "value": ">19 µM"}
{"compound": "Cc1cn([C@H]2C[C@H](N=[N+]=[N-])[C@@H](CO)O2)c(=O)[nH]c1=O", "strain or isolate": "IIIB", "mutations": "D437N L441P", "cells": "MT-2", "read by": "p24 / ELISA", "read-out": "fold resistance", "value": "1.3"}

4 of the rows above, restated:

CCn1nc(Cc2cccc(F)c2)cc1C1CCN(C[C@H]2CN([C@@H](C(=O)O)C3CCCCC3)C[C@@H]2c2cccc(F)c2)CC1 ; strain or isolate: BaL ; cells: HeLa ; read by: β-galactosidase ; read-out: EC90 ; value: <0.00014 µM
CCn1nc(Cc2ccc(OC(F)F)cc2)cc1C1CCN(C[C@H]2CN([C@@H](C(=O)O)C(C)C)C[C@@H]2c2cccc(F)c2)CC1 ; strain or isolate: BaL ; cells: HeLa ; read by: β-galactosidase ; read-out: EC90 ; value: <0.00014 µM
Cc1cn([C@H]2C[C@H](N=[N+]=[N-])[C@@H](COP(=O)(O)OC[C@H]3OC(O)[C@H](O)[C@@H](O)[C@@H]3O)O2)c(=O)[nH]c1=O ; strain or isolate: LAV-Bru ; cells: CEM ; read by: RT activity ; setting: 22 d ; read-out: inhibition ; tested at: 0.2 µM ; value: 56%
Cc1cn([C@H]2C[C@H](N=[N+]=[N-])[C@@H](CO)O2)c(=O)[nH]c1=O ; strain or isolate: IIIB ; mutations: D437N L441P ; cells: MT-2 ; read by: p24 / ELISA ; read-out: fold resistance ; value: 1.3